A mixed list of measured activities; the numbers were collected in NIAID ChemDB.

All rows: growth or infection tests; species: Cryptococcus neoformans

A number after MIC or MFC names an inhibition level or a share of isolates. ECn: concentration that inhibits the pathogen or its effect by n%. An empty or dashed field is not shown. Neighbouring rows are from separate reports.

smiles	endpoint	strain	read by	result
Oc1ccccc1C=Nc1ccccc1O	MIC99	5396	-	5.7 µg/mL
COc1cc(/C=C2\SC(=S)NC2=O)cc(OC)c1OCC(O)(Cn1cncn1)c1ccc(F)cc1F	MIC50	ATCC 34664	broth dilution	16 µg/mL
Cc1cc(NS(=O)(=O)c2ccc(N)cc2)no1	MIC	IFM 49722	-	32 µg/mL
CCCCCC(Cn1ccnc1)c1ccc(Cl)cc1	MIC	-	-	10 µg/mL
CC(C)=CCc1c(O)cc(O)c2oc3cccc(O)c3c(=O)c12	MIC	-	-	>25 µg/mL
C[C@H]1[C@H](O)[C@@H](C)/C=C/C=C/C=C/C=C/C=C/C=C/C=C/[C@H](O[C@@H]2O[C@H](C)[C@@H](O)[C@H](N)[C@@H]2O)C[C@@H]2O[C@](O)(C[C@@H](O)C[C@@H](O)CC[C@H](O)[C@@H](O)C[C@@H](O)CC(=O)O[C@H]1C)C[C@H](O)[C@H]2C(=O)O	MIC	-	-	0.04 µg/mL
CSc1nc2ccccc2c(=O)n1/N=C1\C(=O)N(CN2CCCCC2)c2ccc(Cl)cc21	MIC	-	-	9.76 µg/mL
C=C1/C=C(\CO)[C@H](CC)OC(=O)[C@H](C)C(=O)C(O)(CO)C/C(C)=C/[C@@H](C)C1	MIC	MY2062	-	3.1 µg/mL
CC[C@@H]([C@H](C)O)n1ncn(-c2ccc(N3CCN(c4ccc(OC[C@@H]5CO[C@@](Cn6cncn6)(c6ccc(F)cc6F)C5)cc4)CC3)cc2)c1=O	MIC50	373 isolates	-	0.12 µg/mL
CN(CCCOc1ccccc1)CC(O)(Cn1cncn1)c1ccc(F)cc1F	MIC80	-	-	0.62 µM
O=C1OCC(c2cccs2)=C1c1ccc(OCC(O)(Cn2cncn2)c2ccc(F)cc2F)cc1	MIC50	ATCC 34664	broth dilution	8 µg/mL
CN(CCCCCOc1ccccc1)CC(O)(Cn1cncn1)c1ccc(F)cc1F	MIC80	-	-	0.15 µM
Oc1ccc(O)c(C=Nc2ccccc2O)c1	MIC99	28JF	-	11.3 µg/mL
COc1cc(O)c2c(c1)C(=O)c1c(cc3c(c1O)-c1c(cc(C)c(C(=O)N[C@H](CO)C(=O)O)c1O)[C@H](OC1OC(C)C(N)C(OC4OCC(O)C(O)C4O)C1O)[C@H]3O)C2=O	MIC	IAM 4514	-	0.8 µg/mL
CCCCCC(Cn1ccnc1)c1ccc(Cl)cc1Cl	MIC	-	-	10 µg/mL
CC1(O)OC(=O)C(c2ccc(OCC(O)(Cn3cncn3)c3ccc(F)cc3F)cc2)=C1c1ccc(F)cc1F	MIC50	ATCC 34664	broth dilution	16 µg/mL
CCCC(Cn1ccnc1)c1ccccc1Cl	MIC	-	-	100 µg/mL
CC(=O)c1ccc2c(c1O)C=CC(C)(C)O2	MIC	-	-	50 µg/mL
C[C@@H](c1nc(-c2ccc(C#N)cc2)cs1)[C@](O)(Cn1cncn1)c1ccc(F)cc1F	MIC	3	-	0.025 µg/mL
Oc1ccccc1N=Cc1ccc(O)c(O)c1O	MIC	96806	broth dilution	11.3 µg/mL
CSc1nc2ccccc2c(=O)n1/N=C1\C(=O)N(CN2CCCCC2)c2ccc(Br)cc21	MIC	-	-	39.06 µg/mL
C[C@@H](c1ncncc1F)[C@](O)(Cn1cncn1)c1ccc(F)cc1F	MIC80	-	-	0.18 µM
CSc1nc2ccccc2c(=O)n1/N=C1\C(=O)N(CN2CCCCC2)c2ccccc21	MIC	-	-	39.06 µg/mL
OC(CN1CCCN(CCCCCOc2ccccc2)C1)(Cn1cncn1)c1ccc(F)cc1F	MIC80	-	-	32.97 µM
CCCCCC(Cn1ccnc1)c1c(Cl)cccc1Cl	MIC	-	-	<1 µg/mL
C[C@H]1[C@H](O)[C@@H](C)/C=C/C=C/C=C/C=C/C=C/C=C/C=C/[C@H](O[C@@H]2O[C@H](C)[C@@H](O)[C@H](N)[C@@H]2O)C[C@@H]2O[C@](O)(C[C@@H](O)C[C@@H](O)CC[C@H](O)[C@@H](O)C[C@@H](O)CC(=O)O[C@H]1C)C[C@H](O)[C@H]2C(=O)O	MIC90	12 strains	-	1 µg/mL
Oc1ccccc1N=Cc1cccc(O)c1O	MIC	ATCC 62066	broth dilution	2 µg/mL
COc1cc(C2=C(c3ccc(F)cc3F)COC2=O)ccc1OCC(O)(Cn1cncn1)c1ccc(F)cc1F	MIC50	ATCC 34664	broth dilution	8 µg/mL
O=C(O)c1ccc(O)c(O)c1	MIC	-	-	>25 µg/mL
Cc1nnc(NS(=O)(=O)c2ccc(N)cc2)s1	MIC	IFM 40215	-	≥256 µg/mL
Oc1ccccc1N=Cc1ccc(F)cc1	MIC	C-3-1	broth dilution	4 µg/mL
Cc1cc(NS(=O)(=O)c2ccc(N)cc2)nc(C)n1	MIC	IFM 40216	-	≥256 µg/mL
CC(C)S(=O)(=O)N1CCN(c2cnn(-c3cc(F)cc(F)c3)c(=O)c2OC2CCC(F)C2)CC1	MIC	C297	broth dilution	4 µg/mL
CN(CC#CC#CC(C)(C)C)c1cccc2c1CCC(=O)N2	EC50	CY1057	-	>200 µg/mL
Oc1ccccc1N=Cc1ccccc1	MIC	C-3-1	broth dilution	2 µg/mL
CCCCCCCCC(Cn1ccnc1)c1ccccc1Br	MIC	-	-	10 µg/mL
O=c1c(N2CCOCC2)c(N2CCN(S(=O)(=O)Cc3ccccc3)CC2)cnn1-c1ccccc1	MIC	C237	broth dilution	200 µg/mL
OC(CN1CCCN(CCCCOc2ccccc2)C1)(Cn1cncn1)c1ccc(F)cc1F	MIC80	-	-	33.95 µM
Nc1[nH]c(=O)ncc1F	MIC	H38	-	1 µg/mL
O=c1c2cc(O)ccc2oc2cc(O)cc(O)c12	MIC	-	-	>25 µg/mL
CCC(C)n1ncn(-c2ccc(N3CCN(c4ccc(OC[C@H]5CO[C@](Cn6cncn6)(c6ccc(Cl)cc6Cl)O5)cc4)CC3)cc2)c1=O	Mean MIC	42 isolates (HIV+)	-	0.101 µg/mL
COc1cc(NS(=O)(=O)c2ccc(N)cc2)nc(OC)n1	MIC	IFM 49624	-	≥256 µg/mL
COc1cc(O)c2c(=O)c3ccc(O)c(OC)c3oc2c1	MIC	-	-	>25 µg/mL
Cc1nc(NCCCCNc2ccnc3cc(Cl)ccc23)nc(-c2ccccc2[N+](=O)[O-])c1C(=O)OC(C)C	MIC99	F-10	-	4 µg/mL
CCCCCCC(Cn1ccnc1)c1ccc(Cl)cc1Cl	MIC	-	-	<1 µg/mL
CSc1nc2ccccc2c(=O)n1/N=C1\C(=O)N(CN(C)C)c2ccc(Br)cc21	MIC	-	-	19.53 µg/mL
CCCC(Cn1ccnc1)c1ccc(Cl)cc1Cl	MIC	-	-	<1 µg/mL
COc1cc(O)c2c(c1)C(=O)c1c(cc3c(c1O)-c1c(cc(C)c(C(=O)NC(CO)C(=O)O)c1O)[C@H](OC1OC(C)C(O)C(OC4OCC(O)C(O)C4O)C1O)C3O)C2=O	MIC50	15 isolates	-	2 µg/mL
C=CC1=CC[C@H]2[C@@H](C[C@H]3OC(=O)[C@@]4(C)[C@@H](O)CC[C@@]2(C)[C@@]34O)[C@H]1C	MIC	-	-	0.25 µg/mL
CCCCCCCCC(Cn1ccnc1)c1ccc(F)cc1	MIC	-	-	<1 µg/mL
O=[N+]([O-])c1ccc(C=Nc2ccccc2O)cc1	MIC	96806	broth dilution	11.3 µg/mL
CC[C@@H]([C@H](C)O)n1ncn(-c2ccc(N3CCN(c4ccc(OC[C@@H]5CO[C@@](Cn6cncn6)(c6ccc(F)cc6F)C5)cc4)CC3)cc2)c1=O	MFC90	10 strains	-	0.5 µg/mL